Experimental findings from article PMC3848071 (Acta Naturae, 2013) are described below.

Common to all, as to test: purified protein
The test system of data set [1] is N[C@@H](CSCc1ccccc1)C(=O)O.
For another data set, the system named is CCSC[C@H](N)C(=O)O.
Data set [2] has as its system C[S+]([O-])CC[C@H](N)C(=O)O.

Regarding “MGL from C. tetani (Clostridium tetani E88)”, the Km (commonly the concentration of substrate that gives half-maximal velocity) in data set [1] worked out at 766 µM; in the data set on CCSC[C@H](N)C(=O)O, 720 µM; in data set [2] it was 7070 µM. Moreover, the kcat/Km – broadly, the turnover number divided by the Michaelis constant – in data set [1] stood at 11100 M⁻¹ s⁻¹; in the data set on CCSC[C@H](N)C(=O)O, 9830 M⁻¹ s⁻¹; in data set [2], 382 M⁻¹ s⁻¹.
